Pooled drug test results. Numbers come from NIAID ChemDB, via PubChem.

Shared fields: whole-cell or culture tests; agent: HIV-1; cells: MT-2; endpoint: EC50

ECn is the concentration giving n% inhibition of infection, replication or growth.

| smiles | strain or isolate | mutations | method | conditions | value |
|---|---|---|---|---|---|
| COc1ccc(N(C)C(=O)C(Cc2ccccc2)NC(=O)c2cccc(C(=O)N[C@H](Cc3ccccc3)C(=O)N(C)c3ccc(OC)cc3)c2)cc1 | NL4-3 | - | luciferase | - | 1.13 µM |
| COc1ccc(OCCNc2ccc(-c3cnc(C)c([C@H](OC(C)(C)C)C(=O)O)c3N3CCC(C)(C)CC3)cn2)cc1 | NL4-3 | - | luminescence | - | 0.002 µM |
| CC(C)C1=C2[C@H]3CC[C@@H]4[C@@]5(C)CC[C@H](OC(=O)[C@H]6C[C@@H](C(=O)O)C6(C)C)C(C)(C)[C@@H]5CC[C@@]4(C)[C@]3(C)CC[C@@]2(CCN(CCN(C)C)C(=O)c2ccc(Cl)cc2)CC1=O | 92HT599 | - | p24 / ELISA | - | <1 µM |
| Cc1ncc(-c2ccc(OCCn3ccccc3=O)cn2)c(N2CCC(C)(C)CC2)c1[C@H](OC(C)(C)C)C(=O)O | NL4-3 | - | luminescence | - | 0.0808 µM |
| CC(C)C1=C2[C@H]3CC[C@@H]4[C@@]5(C)CC[C@H](OC(=O)CC(C)(C)C(=O)O)C(C)(C)[C@@H]5CC[C@@]4(C)[C@]3(C)CC[C@@]2(NC(=O)N2CCN(C)CC2)CC1=O | IIIB | - | RT activity | 30% human serum | <0.199 µM |
| CN(C(=O)[C@H](Cc1cc(F)cc(F)c1)NC(=O)NS(=O)(=O)N[C@@H](Cc1cc(F)cc(F)c1)C(=O)N(C)c1ccccc1)c1ccccc1 | NL4-3 | - | luciferase | - | 0.09 µM |
| CC(C)C1=C2C3CCC4[C@@]5(C)CC[C@H](OC(=O)CC(C)(C)C(=O)O)C(C)(C)C5CC[C@@]4(C)[C@]3(C)CC[C@@]2(NC(=O)OC2CCCCC2)CC1=O | IIIB | - | RT activity | 30% human serum | <0.199 µM |
| CC(C)C1=C2[C@H]3CC[C@@H]4[C@@]5(C)CC[C@H](OC(=O)[C@H]6C[C@@H](C(=O)O)C6(C)C)C(C)(C)[C@@H]5CC[C@@]4(C)[C@]3(C)CC[C@@]2(CCNCCN2CCS(=O)(=O)CC2)CC1=O | 92HT599 | - | p24 / ELISA | - | <1 µM |
| COCCOCCOc1ccc(-c2cnc(C)c([C@H](OC(C)(C)C)C(=O)O)c2N2CCC(C)(C)CC2)nc1 | NL4-3 | - | luminescence | - | 0.0042 µM |
| CC(C)C1=C2[C@H]3CC[C@@H]4[C@@]5(C)CC[C@H](OC(=O)[C@H]6C[C@@H](C(=O)O)C6(C)C)C(C)(C)[C@@H]5CC[C@@]4(C)[C@]3(C)CC[C@@]2(CCNCC(CN)NC(=O)c2ccc(Cl)cc2)CC1=O | 92HT599 | - | p24 / ELISA | - | <1 µM |
| CC(C)C1=C2C3CCC4[C@@]5(C)CC[C@H](OC(=O)CC(C)(C)C(=O)O)C(C)(C)C5CC[C@@]4(C)[C@]3(C)CC[C@@]2(NC(=O)N[C@H](C)C2CCCCC2)CC1=O | IIIB | - | RT activity | 30% human serum | <0.199 µM |
| CCN(C(=O)[C@H](Cc1cc(F)cc(F)c1)NC(=O)CN1c2ccccc2N(CC(=O)N[C@@H](Cc2cc(F)cc(F)c2)C(=O)N(CC)c2ccc3oc(=O)n(Cc4ccccc4)c3c2)S1(=O)=O)c1ccc2oc(=O)n(Cc3ccccc3)c2c1 | NL4-3 | - | luciferase | - | 1.54 µM |
| CC(C)C1=C2[C@H]3CC[C@@H]4[C@@]5(C)CC[C@H](OC(=O)CC(C)(C)C(=O)O)C(C)(C)[C@@H]5CC[C@@]4(C)[C@]3(C)CC[C@@]2(NC(=O)c2cccnc2)CC1=O | IIIB | - | RT activity | 30% human serum | <0.199 µM |
| COc1cc(Cl)ccc1CNCC[C@@]12CC[C@]3(C)[C@H](CC[C@@H]4[C@@]5(C)CC[C@H](OC(=O)[C@H]6C[C@@H](C(=O)O)C6(C)C)C(C)(C)[C@@H]5CC[C@]43C)C1=C(C(C)C)C(=O)C2 | 92HT599 | - | p24 / ELISA | - | <1 µM |
| CNC1CCN(C(=O)N[C@@]23CC[C@]4(C)C(CCC5[C@@]6(C)CC[C@H](OC(=O)CC(C)(C)C(=O)O)C(C)(C)C6CC[C@]54C)C2=C(C(C)C)C(=O)C3)CC1 | IIIB | - | RT activity | 30% human serum | 0.2–0.999 µM |
| Nc1nc(NC2CC2)c2ncn([C@H]3C=C[C@@H](CO)C3)c2n1 | Clinical isolate | A62V/V75I/F77L/F116L/Q151M/M184V | recombinant virus assay | - | 1.496 µM |
| Cc1ncc(-c2ccc(OCC3CC(C)(C)C3)cn2)c(N2CCC(C)(C)CC2)c1[C@H](OC(C)(C)C)C(=O)O | NL4-3 | - | luminescence | - | 0.0016 µM |
| CC(C)C1=C2[C@H]3CC[C@@H]4[C@@]5(C)CC[C@H](OC(=O)[C@H]6C[C@@H](C(=O)O)C6(C)C)C(C)(C)[C@@H]5CC[C@@]4(C)[C@]3(C)CC[C@@]2([C@@H](O)CNC(=O)c2ccc(Cl)cn2)CC1=O | 92HT599 | - | p24 / ELISA | - | <1 µM |
| CC(C)C1=C2[C@H]3CC[C@@H]4[C@@]5(C)CC[C@H](OC(=O)CC(C)(C)C(=O)O)C(C)(C)[C@@H]5CC[C@@]4(C)[C@]3(C)CC[C@@]2(NC(=O)C2CCN(C(=O)OC(C)(C)C)CC2)CC1=O | IIIB | - | RT activity | 30% human serum | <0.199 µM |
| COc1ccc(N(C)C(=O)[C@H](Cc2cc(F)cc(F)c2)NC(=O)Cn2c(=O)c(=O)n(CC(=O)N[C@@H](Cc3cc(F)cc(F)c3)C(=O)N(C)c3ccc(OC)cc3)c3ccccc32)cc1 | NL4-3 | - | luciferase | - | 0.03 µM |
| CC(C)C1=C2[C@H]3CC[C@@H]4[C@@]5(C)CC[C@H](OC(=O)[C@H]6C[C@@H](C(=O)O)C6(C)C)C(C)(C)[C@@H]5CC[C@@]4(C)[C@]3(C)CC[C@@]2(CCNC[C@@H](NC(=O)c2ccc(Cl)cc2)C(C)O)CC1=O | 92HT599 | - | p24 / ELISA | - | <1 µM |
| COc1ccc(N(C)C(=O)[C@H](Cc2ccccc2)NC(=O)Cn2c(=O)n(CC(=O)N[C@@H](Cc3ccccc3)C(=O)N(C)c3ccc(OC)cc3)c3cc([N+](=O)[O-])ccc32)cc1 | NL4-3 | - | luciferase | - | 0.09 µM |
| CC(C)C1=C2C3CCC4[C@@]5(C)CC[C@H](OC(=O)CC(C)(C)C(=O)O)C(C)(C)C5CC[C@@]4(C)[C@]3(C)CC[C@@]2(NC(=O)N2CC[C@@H](NC(=O)OC(C)(C)C)C2)CC1=O | IIIB | - | RT activity | 30% human serum | <0.199 µM |
| Cc1ccccc1OCCOc1ccc(-c2cnc(C)c([C@H](OC(C)(C)C)C(=O)O)c2N2CCC(C)(C)CC2)nc1 | NL4-3 | - | luminescence | - | 0.0014 µM |
| CC(C)C1=C2[C@H]3CC[C@@H]4[C@@]5(C)CC[C@H](OC(=O)[C@H]6C[C@@H](C(=O)O)C6(C)C)C(C)(C)[C@@H]5CC[C@@]4(C)[C@]3(C)CC[C@@]2(CCNC(=O)c2cnn3cccnc23)CC1=O | 92HT599 | - | p24 / ELISA | - | <1 µM |
| CC(C)C1=C2C3CCC4[C@@]5(C)CC[C@H](OC(=O)CC(C)(C)C(=O)O)C(C)(C)C5CC[C@@]4(C)[C@]3(C)CC[C@@]2(NC(=O)c2ncccn2)CC1=O | IIIB | - | RT activity | 30% human serum | <0.199 µM |
| C#C[C@@]1(CO)C=C[C@H](n2cc(C)c(=O)[nH]c2=O)O1 | Clinical isolate | M41L/D67N/K70R/M184V/L210W/T215Y/K219E | recombinant virus assay | - | 6.137 µM |
| CC(C)C1=C2[C@H]3CC[C@@H]4[C@@]5(C)CC[C@H](OC(=O)CC(C)(C)C(=O)O)C(C)(C)[C@@H]5CC[C@@]4(C)[C@]3(C)CC[C@@]2(NC(=O)NCc2ccccc2)CC1=O | IIIB | - | RT activity | 30% human serum | <0.199 µM |
| Cc1ncc(-c2ccc(N(C)CCOc3ccc(Cl)cc3)nc2)c(N2CCC(C)(C)CC2)c1[C@H](OC(C)(C)C)C(=O)O | NL4-3 | - | luminescence | - | 0.004 µM |

An empty or dashed field is not shown. a–b is a range or a potency band. Conditions beyond the fields shown may differ between rows.